Anti-infective test results gathered from many reports (values: NIAID ChemDB through PubChem).

Shared fields: target-level tests; species: HIV-1; protein: RNase H; measure: IC50

ICn is the concentration giving n% inhibition. Lines come from different laboratories, so protocols vary. An empty or dashed field is not shown.

smiles	read by	mutations	result
CCOC(=O)c1c(C)cc(=O)c(O)c(O)c1O	RNase H / fluorescence	-	1.1 µM
Cc1cc(O)c2c(c1)C(=O)c1cc(OCC(=O)c3ccc(Cl)cc3)cc(O)c1C2=O	RNase H	-	91 µM
CC(C)(O)[C@H]1CC=C(COC2O[C@@H](CO[C@H]3OC[C@H](O)[C@@H](O)[C@@H]3O)[C@H](O)[C@@H](O)[C@@H]2O)CC1	FRET	-	>20 µM
O=C(Nc1ccccn1)c1c(NC(=O)C2CCCCC2)sc2c1CCCCC2	RNase H / fluorescence	-	16.6 µM
NC(=O)c1c(NC(=O)c2ccc(Cl)cc2)sc2c1CCCCC2	RNase H / fluorescence	-	62.7 µM
O=C(Nc1sc2c(c1C(=O)Nc1ccccn1)CCCCC2)c1ccccc1	RNase H / fluorescence	-	14.8 µM
COc1cccc(Cn2cccc2/C=C/C(=O)CC(=O)C(=O)O)c1	substrate cleavage / fluorescence	R448A	88 µM
COc1c(/C=C/C(=O)c2ccc(Br)cc2)ccc2ccccc12	RNase H / substrate cleavage	-	47 µM
Cc1nc2sc3c(c2c(=O)o1)CCC3	RNase H / fluorescence	-	1 µM
O=c1nc(Nc2cccc(-c3cccc(CN4CCCCC4)c3)c2)c2cccnc2n1O	substrate cleavage / radiometric	-	0.355 µM
C/C(COc1ccc2c(c1O)C(=O)c1ccccc1C2=O)=N\NC(=O)c1ccncc1	RNase H	-	>100 µM
CCOC(=O)C(=O)CC(=O)/C=C/c1cccn1Cc1ccc(C)cc1C	substrate cleavage / fluorescence	R448A	10 µM
CC(=O)COc1ccc2c(c1OCC(C)=O)C(=O)c1ccccc1C2=O	RNase H	-	>100 µM
COc1c(/C=C/C(=O)c2cccc([N+](=O)[O-])c2)ccc2ccccc12	RNase H / substrate cleavage	-	31 µM
C[C@H](O)CC[C@@]1(O)[C@@H](C)C[C@H](O[C@H]2O[C@@H](CO)[C@H](O)[C@@H](O)[C@@H]2O)CC1(C)C	FRET	-	>20 µM
O=C(CCc1ccccc1)Nc1sc2c(c1C(=O)Nc1ccccn1)CCCCC2	RNase H / fluorescence	-	14.6 µM
Cc1ccc(Cl)cc1Nc1nc(C(F)(F)F)ccc1C(=O)NN1CCN(c2cccc(Cl)c2)CC1	RNase H / absorbance	Q475A	>100 µM
O=c1oc(-c2ccccc2F)nc2sc3c(c12)CCCCC3	RNase H / fluorescence	-	34.9 µM
Nc1nc2c(ncn2[C@@H]2O[C@H](COCO[C@H]3[C@@H](O)[C@H](n4cnc5c(=O)[nH]c(N)nc54)O[C@@H]3CO)[C@@H](O)[C@H]2O)c(=O)[nH]1	RNase H	-	20 µM
NC(=O)c1c(NC(=O)c2ccccc2F)sc2c1CCCCC2	RNase H / fluorescence	-	13.73 µM
COc1c(/C=C/C(=O)c2ccc(Cl)cc2)ccc2ccccc12	RNase H / substrate cleavage	-	76 µM
C#CC(O)/C=C/C/C=C/C=C/C=C/CC#CC(O)C#CC/C=C/C=C/C=C/CC(O)C#C	radiometric	-	>100 µM
CC(=O)C(C)Oc1ccc(O)c2c1C(=O)c1ccccc1C2=O	-	-	>66 µM
CCOC(=O)c1c(NC(=O)c2ccccc2F)sc2c1CCCCC2	RNase H / fluorescence	-	25.2 µM
Cc1nc2c3c(sc2c(=O)o1)CCCCC3	RNase H / fluorescence	-	4.86 µM
C=C1CCC[C@H]2[C@](C)(CC3=C(O)C(=O)C=C(OC)C3=O)[C@@H](C)CC[C@]12C	RT activity	-	5.4 µg/mL
O=C(Nc1sc2c(c1C(=O)Nc1ccccn1)CCCCC2)c1ccc(Cl)cc1	RNase H / fluorescence	-	17.78 µM
C/C(COc1ccc2c(c1O)C(=O)c1ccccc1C2=O)=N\NC(=O)c1cccnc1	RNase H	-	90 µM
Cc1cc(O)c2c(c1)C(=O)c1cc(O)cc(O)c1C2=O	RNase H	-	75 µM
Nc1sc2c(c1C(=O)Nc1ccccc1O)CCCCC2	RNase H / fluorescence	-	>100 µM
CO[C@@H]1[C@H](O)[C@@H](COP(=O)(O)O[C@H]2C[C@H](n3cnc4c(=O)[nH]c(N)nc43)O[C@@H]2CO)O[C@H]1n1cnc2c(=O)[nH]c(N)nc21	RNase H	-	8 µM
O=C1OCc2cc(=O)c(O)c(O)c(O)c21	RNase H / fluorescence	-	1.2 µM
O=C(CCc1ccc(Cl)cc1)Nc1sc2c(c1C(=O)Nc1ccccn1)CCCCC2	RNase H / fluorescence	-	9.9 µM
CC(C)OC(=O)c1cc(NC(=S)OC(C)C)ccc1Cl	-	-	>300 µM
C/C(COc1ccc2c(c1O)C(=O)c1ccccc1C2=O)=N\NC(N)=O	RNase H	-	>100 µM
CCOC(=O)C(=O)CC(=O)/C=C/c1cccn1Cc1ccccc1Cl	RNase H / fluorescence	-	8.7 µM
OC[C@H]1O[C@@H](OCCc2ccc(O)cc2)[C@H](O)[C@@H](O)[C@@H]1O	FRET	-	>20 µM
O=C(Cc1nc(=O)n(O)c2ncccc12)NCc1ccccc1	radiometric	-	0.032 µM
COC(=O)[C@]1(O)C[C@@H](O)[C@@H](O)[C@H](OC(=O)/C=C/c2ccc(O)c(O)c2)C1	FRET	-	>20 µM
O=C1c2ccccc2C(=O)c2c(O)ccc(O)c21	-	-	>100 µM
O=C(/C=C/c1cccn1Cc1ccccc1Cl)CC(=O)C(=O)O	substrate cleavage / fluorescence	-	19.2 µM
CCCCN(CCCC)c1nc(OCCc2ccc([N+](=O)[O-])cc2)c2ncn([C@@H]3O[C@H](COP(O)(=S)O[C@H]4[C@@H](F)[C@H](n5cnc6c(N)ncnc65)O[C@@H]4CO)[C@@H](O)[C@H]3O)c2n1	RNase H	-	15 µM
CC(=O)COc1ccc(O)c2c1C(=O)c1ccccc1C2=O	-	-	>100 µM
Nc1nc2c(ncn2[C@@H]2O[C@H](COP(=O)(O)O[C@H]3[C@@H](F)[C@H](n4cnc5c(NCc6ccc7ccccc7c6)ncnc54)O[C@@H]3CO)[C@@H](O)[C@H]2O)c(=O)[nH]1	RNase H	-	20 µM
O=C(NCc1ccc(F)cc1)C1C(=O)N(O)C(=O)c2ccccc21	-	-	0.36 µM
CCCC(C)Nc1nc(OCCc2ccc([N+](=O)[O-])cc2)c2ncn([C@@H]3O[C@H](COP(O)(=S)O[C@H]4C[C@H](n5cnc6c(N)ncnc65)O[C@@H]4CO)[C@@H](O)[C@H]3O)c2n1	RNase H	-	3 µM
COc1ccccc1NC(=O)c1c(N)sc2c1CCCCC2	RNase H / fluorescence	-	91.3 µM